Measurements published in the supplement of paper PMC9931576.
Human monoclonal antibodies against the spike receptor-binding domain (heavy:light variable regions). IC50 against pseudoviruses bearing the spike of naturally observed variants; lower = stronger; >10 µg/ml means not reached at the top dose. No active / inactive call. The stated detection limit is 0.0005 µg/ml; values near or below 0.001 µg/ml lie at the floor of the assay.

B1: BD57-0243 (protein)
chain 1: EVQLVESGGGLVQPGGSLRLACAASGLIVSRNYMTWVRQAPGKGLEWVSVIYPGGSTFYADSVKGRFTISRDDSNNTLYLQMNSLRAEDTAVYYCARDLSVVGGFDIWGQGTTVIVSS
chain 2: DIVLTQSPGTLSLSPGERATLSCRASQSVSSSYLAWYQQKPGQAPRLLIYGASIRATGIPDRFSGSGSGTDFTLTISRLEPEDFAVYFCQQYGSSPAYTFGQGTKLEIK
B2: BD57-0286 (protein)
chain 1: QVQLEQSRAEVKKPGSSVKVSCKASGNTFSSYAISWVRQAPGQGLEWMGGIIPKFGAAHYAQKFQGRVSITADESTSTAYIELRSLRSEDTAVYFCARALAPYCIGAKCFVLRHWGQGTLVTVSA
chain 2: DVMMTQTPLSLSVTPGQPASISCKSSESLLHSDGQTYLYWFLQKPGQSPQLLIYEVSSRFSGVPDRFSGSGSGTDFTLEISRVEAEDVGIYYCMQGMHLPLTFGGGTRVEIK
B3: BD57-0263 (protein)
chain 1: QVHLVESGGGVVQPGRSLRLSCAASGFTFSNYAMHWVRQAPGKGLEWVALTSYDGSNTFYADSVKGRFTISRDNSKNTLYLQMNSLRAEDTAVYYCANENEGYHSWSGLGHFDYWGQGTLVTVSS
chain 2: DIQMTQSPSSLSASVGDRVTITCRASRTIITYLNWYQQKPGKPPNLLIYAASTLQTGVPARFSGSGSGTEFTLTISSLQPEDFATYYCQQSFNTPPTFGQGTKVEVK
B4: BD57-0290 (protein)
chain 1: EVQLVESGGGLVKPGGSLRLSCAASGFSFSDAWMTWVRLAPGKGLEWVGHIKSKTDGGTTDHAAPVKGRFTMSRDDSKNTLYLEMNSLKTEDTAVYYCIWSDILTAYINYGMDVWGQGTTVTVSS
chain 2: DIQMTQSPSTLSASVGDRVTITCRASQSISTWLAWYQQKPGKAPELLIYKASTLKSGVPSRFSGSGSGTEFTLTISSLQPDDSATYYCQQYNSYYWTFGQGTKVEIK
B5: BD57-0242 (protein)
chain 1: QVQLVQSGAEVKKPGSSVKVSCKASGDTSISYSIAWVRQAPGQGLQWMGRIIPIFGKANYAQKFQGRVTITADKSTSTAYMELSSLRSDDTAVYYCARGFGDYRWFDPWGQGTLVTVSS
chain 2: QSALTQPASVSGSPGQSITISCTGTNNDLDGYNFVSWYQQHPGKAPKVLIYDVSNRPSGVSNRFSGSKSGNTASLTISGLQAEDEADYYCGSYIHSTTPYLFGTGTTVTVL
B6: BD57-0281 (protein)
chain 1: QVTLRESGPALVKPTQTLTLTCTFSGFSLSTHGMCVSWIRLPPGKALEWLARIDWEDDKYYSTSLKTRLTISKDTSKNQVVLTMTNMDPVDTGRYYCARSPSSGQYWPVLIDYWGQGTLVTVSS
chain 2: QSALTQPASVSGSPGQSITISCTGTSSDVGNYNLVSWYQQHPGKAPKLIIYEGSKRPSGVSNRFSGSKSGNTASLTISGLQAEDEADYYCCSFAGTSTVFVFGTGTKVTAL
B7: BD57-0251 (protein)
chain 1: EVQLVQSGAEVKKSGESLKISCKVSGYSFSNYWIGWVRQRPGKGLEWMGIIYPGDSDTRYSPSFQGQVTISADKSINTAYLQWSSLKASDTAMYYCAKPFGYSGYDPDYSYDMDVWGQGTTVTVSS
chain 2: QSALTQPASVSGSPGQSITISCTGASTDVGSYNLVSWYQQHPGKAPKLIIYEGSKRPSGVSNRFSGSKSGNTASLTISGLQAEDEADYYCSSYPGSSISVFGGGTKLAVL
B8: BD57-0247 (protein)
chain 1: EVQLVESGGDLVQPGGSLRLSCAASGFTFSSYDMHWVRQTTGKGLEWVSTIGTAGDTYYPDSVKGRFTISRENAKNSLYLQMNSLRAEDTAVYYCARGGYDNSGYYWFFDLWGRGTLVIVSS
chain 2: DIQMTQSPSSLSASVGDRVTITCRASQTISSYLNWYQQKAGKAPKLLIYAASSLQSGVPSRFSGSGSGTDFTLTISSLQPEDFATYYCQQSYSTFGTFGQGTRLEIK
B9: C1A-B12 (protein)
chain 1: EVQLVESGGGLIQPGGSLRLSCAASGFTVSSNYMSWVRQAPGKGLEWVSVIYSGGATYYADSVKGRFTISRDNSKNTLYLQMNSLRAEDTAVYYCARGDVSGYRYGLDYWGQGTLVTVS
chain 2: DIQLTQSPSSLSASVGDRVTITCRASQGISSYLAWYQQKPGKAPKLLIYAASTLQSGVPSRFSGSGSGTDFTLTISSLQPEDFATYYCQQLISYPGTFGQGTKLEIK
B10: BD57-0266 (protein)
chain 1: QVQLQQWGAGLLRPSETLSLTCAVYGGSFSGFYWSWIRQSPGKGLEWIGEITHSGTTEYNPSLKSRVTISIETSKNQFSLKLTSVTPADTALYYCARSRWGWLLRGAFDIWGQGTLFTVSS
chain 2: DIQMTQSPSSLSASVGDRVTITCRASQDISNFLAWFQQKPGKAPKSLIYAASSLQSGVPSKFSGSGSGTDFTLTISSLQPEDFATYYCLQYNDYPYTFGQGTNLEIK
B11: BD57-0287 (protein)
chain 1: QLVQSGAAVKKPGASVKVSCKTSGYIFTDHYIHWVRQAPGQGLEWMGWINPNSGATNYTRKFQGRVTMTRDRSISTAYMEVSGLTSDDTAVYYCARDYNKYVVYYYMDVWGKGTTVTVSS
chain 2: QSALTQPPSASGSPGQSVTISCTGTSSDVGGYHYVSWYQQHPGEAPKLIIYEVTTRPSGVPDRFSGSKSGNTASLTVSGLQAEDEADYFCSSYAGNNNLVFGGGTKLTVL
B12: BD57-0261 (protein)
chain 1: QVQLVQSGAEVKKPGASVKVSCKASGYTFSNYYIHWVRQAPGQGLEWMGIINPRGGSTDYAQKFQGRLTMTTDTSTSTVHMELGSLRSEDTAVFFCARAHSVTVAGVDYWGQGTLVTVSS
chain 2: QTVVTQEPSLTVSPGGTITLTCASRTGVVTSEYFPNWFQQKPGQAPRALIYSTGNKHSWTPARFSGSLLGGKAALTLSGALPEDEADYYCLLYSGNSWVFGGGTTLTVL

target: SARS-CoV-2 Omicron BA.1 spike pseudovirus; test: pseudovirus neutralization IC50; higher = weaker neutralization
Method: (§1)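 Single-round VSV luciferase pseudovirus mixed with antibody dilutions for 1 h and put on Huh-7 cells for about a day; IC50 from the dose curve.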

Row | Binder | pseudovirus neutralization IC50 [µg/mL]
1 | B1 | 0.0048
2 | B2 | > 10
3 | B3 | 0.00117
4 | B4 | 1.77
5 | B5 | 0.00961
6 | B6 | > 10
7 | B7 | 0.477
8 | B8 | > 10
9 | B9 | > 10
10 | B10 | 0.658
11 | B11 | > 10
12 | B12 | 0.112

target: SARS-CoV-2 Omicron BA.2 spike pseudovirus; test: as above
Method: as §1

Row | Binder | pseudovirus neutralization IC50 [µg/mL]
13 | B1 | 0.00815
14 | B2 | > 10
15 | B3 | 0.00273
16 | B4 | 3.69
17 | B5 | 0.00934
18 | B6 | 0.017
19 | B7 | 0.477
20 | B8 | > 10
21 | B9 | > 10
22 | B10 | 0.786
23 | B11 | > 10
24 | B12 | 0.204

target: SARS-CoV-2 Omicron BA.2.75 spike pseudovirus; test: as above
Method: as §1

Row | Binder | pseudovirus neutralization IC50 [µg/mL]
25 | B1 | 0.154
26 | B2 | > 10
27 | B3 | 0.00244
28 | B4 | 3.12
29 | B5 | 0.00869
30 | B6 | > 10
31 | B7 | 0.322
32 | B8 | > 10
33 | B9 | > 10
34 | B10 | 0.117
35 | B11 | > 10
36 | B12 | 0.0329

target: SARS-CoV-2 Omicron BA.5 spike pseudovirus; test: as above
Method: as §1

Row | Binder | pseudovirus neutralization IC50 [µg/mL]
37 | B1 | 0.0125
38 | B2 | > 10
39 | B3 | 0.0211
40 | B4 | 3.6
41 | B5 | 0.0361
42 | B6 | 0.0151
43 | B7 | 0.595
44 | B8 | > 10
45 | B9 | > 10
46 | B10 | > 10
47 | B11 | > 10
48 | B12 | > 10

target: SARS-CoV-2 Omicron BQ.1.1 spike pseudovirus; test: as above
Method: as §1

Row | Binder | pseudovirus neutralization IC50 [µg/mL]
49 | B1 | 1.18
50 | B2 | > 10
51 | B3 | 0.0578
52 | B4 | 7.78
53 | B5 | > 10
54 | B6 | > 10
55 | B7 | 1.51
56 | B8 | > 10
57 | B9 | > 10
58 | B10 | > 10
59 | B11 | > 10
60 | B12 | > 10

target: SARS-CoV-2 Omicron XBB spike pseudovirus; test: as above
Method: as §1

Row | Binder | pseudovirus neutralization IC50 [µg/mL]
61 | B1 | 1.32
62 | B2 | > 10
63 | B3 | > 10
64 | B4 | 3.98
65 | B5 | 3.06
66 | B6 | > 10
67 | B7 | 1.64
68 | B8 | > 10
69 | B9 | > 10
70 | B10 | > 10
71 | B11 | > 10
72 | B12 | > 10

target: SARS-CoV-2 early D614G spike pseudovirus; test: as above
Method: as §1

Row | Binder | pseudovirus neutralization IC50 [µg/mL]
73 | B1 | 0.00425
74 | B2 | > 10
75 | B3 | 0.00383
76 | B4 | 4.41
77 | B5 | 0.00109
78 | B6 | 0.000832
79 | B7 | 1.33
80 | B8 | > 10
81 | B9 | 0.0034
82 | B10 | 0.0167
83 | B11 | 0.00124
84 | B12 | 0.00365
